Anti-infective test results gathered from many reports (values: NIAID ChemDB through PubChem).

All rows: toxicity to cultured cells; cell line: MT-4; endpoint: CC50

CCn: concentration that lowers growth or viability of the cells by n%.

structure,method,result
COc1ccc(C(=O)CSc2nc(C(C)CC3CCCCC3)c(C)c(=O)[nH]2)cc1,MTT,43 µM
Cc1ccnc2c1NC(=O)c1cccnc1N2C1CC1,MTT,>15.02 µM
Cc1ccnc2c1NC(=O)c1cccnc1N2C1CC1,MTT,>15 µM
Cc1c(CCC2CCCCC2)nc(SCC(=O)c2ccc(F)cc2)[nH]c1=O,MTT,7.3 µM
COc1ccc(C2CC(=O)c3c(cc(O)c(CC=C(C)C)c3O)O2)c(CC=C(C)C)c1O,-,>100 µg/mL
CC(C)=CCN1Cc2cc(Cl)cc3[nH]c(=S)n(c23)C[C@@H]1C,-,34 µM
O=c1cc(Sc2ccccc2)nc(Cl)[nH]1,-,200 µM
C[C@H]1Cn2c(=S)[nH]c3cc(Cl)cc(c32)CN1CCC1CC1,-,36 µM
Cc1cc(C)c(Oc2ccc(N)c(NC3CCN(Cc4ccc(C(N)=O)cc4)CC3)n2)c(C)c1,MTT,26 µM
C=C(C)CN1Cc2cccc3[nH]c(=O)n(c23)C[C@@H]1C,-,110 µM
Cc1nc(CCCCCCCc2ccccc2)n2nc(Cl)ccc12,-,250 µM
Cc1cc(C)c(Nc2nc(NC3CCN(Cc4ccccc4F)CC3)nc3nc[nH]c23)c(C)c1,MTT,23.61 µM
Cc1nc(CCCCCOC(=O)C2CCCC2)n2nc(Cl)ccc12,-,250 µM
CNc1nc(Nc2c(C)cc(C)cc2C)nc(NC2CCN(Cc3ccc(C(N)=O)cc3)CC2)n1,MTT,27.39 µM
Cc1cn([C@H]2C[C@H](N=[N+]=[N-])[C@@H](CO)O2)c(=O)[nH]c1=O,-,>0.01 µM
CCC(C)Oc1cc(=O)[nH]c(Sc2ccc(OC)cc2)n1,-,>300 µM
Nc1nc2nn(CCOCP(=O)(O)O)nc2c(=O)[nH]1,-,>315 µM
Cc1nc(CCCCCCC(=O)c2ccccc2)n2nc(-n3ccnc3)ccc12,-,26 µM
Cc1cc(C)c(Nc2ccc([N+](=O)[O-])c(NC3CCN(Cc4ccc(C(N)=O)cc4)CC3)n2)c(C)c1,MTT,25 µM
CCC(=CCN1Cc2cc(Cl)cc3[nH]c(=O)n(c23)C[C@@H]1C)CC,-,22 µM
Cc1ccnc2c1NC(=O)c1cccnc1N2C1CC1,MTT,>4 µM
Nc1ncnc2c1nnn2CCOCP(=O)(O)O,-,>365 µM
CCC(C)Oc1cc(N)nc(S(=O)(=O)c2cccc(Cl)c2)n1,-,80 µM
CCc1c(C(C)C2CCCCC2)nc(SCC(=O)c2ccc(OC)cc2)[nH]c1=O,MTT,30 µM
CC(C)=CCc1c(O)ccc(C2COc3c(CC=C(C)C)c(O)cc(O)c3C2=O)c1O,-,10 µg/mL
CCC(C)Oc1cc(=O)[nH]c(Sc2ccc(Cl)cc2)n1,-,>300 µM
COc1ccc(CN2CCC(Nc3nc(Nc4c(C)cc(C)cc4C)c4[nH]cnc4n3)CC2)cc1,MTT,15.1 µM
C=CCN1Cc2cccc3[nH]c(=O)n(c23)CC1C,-,620 µM
CN(C)c1ccc(CNC(=O)[C@@H](NC(=O)Cc2ccccc2)[C@@H]2N[C@@H](C(=O)NCCNC(=O)[C@@H]3N[C@@H]([C@H](NC(=O)Cc4ccccc4)C(=O)NCc4ccc(N(C)C)cc4)SC3(C)C)C(C)(C)S2)cc1,-,>100 µM
CC(C)=CCN1[C@@H](C)Cn2c(=S)[nH]c3cccc(c32)[C@@H]1C,-,81 µM
O=c1[nH]c(=O)n([C@H]2C=C[C@@H](CO)O2)cc1C#CCOC1CCCCO1,MTT,68 µM
Cc1cc(C#N)cc(C)c1Oc1ccc([N+](=O)[O-])c(NC2CCN(Cc3ccc(S(N)(=O)=O)cc3)CC2)n1,MTT,27 µM
CCC(C)Oc1cc(N)nc(Sc2cc(C)cc(C)c2)n1,-,88 µM
CC1(C)C=Cc2c(ccc(C3COc4cc(O)cc(O)c4C3=O)c2O)O1,-,46 µg/mL
Cc1cc(C)c(Oc2ccc([N+](=O)[O-])c(NC3CCN(Cc4ccc(S(C)(=O)=O)cc4)CC3)n2)c(C)c1,MTT,24 µM
Cc1cc(C)c(CN2CCC(Nc3nc(Nc4c(C)cc(C)cc4C)c4[nH]cnc4n3)CC2)c(C)c1,MTT,4.8 µM
CCc1cc(NCc2nc3c(Cl)ccc(Cl)c3o2)c(=O)[nH]c1C,-,>10 µM
CCC(=CCN1Cc2cc(Cl)cc3[nH]c(=S)n(c23)C[C@@H]1C)CC,-,12 µM
CC(C)Nc1cccnc1N1CCN(C(=O)c2cc3cc(NS(C)(=O)=O)ccc3[nH]2)CC1,MTT,>36 µM
Cc1nc(CCCCCCC(=O)c2ccccc2)n2nc(-n3ccnc3C)ccc12,-,260 µM
CCNC(=O)[C@@H](NC(=O)/C=C\c1ccccc1)[C@@H]1N[C@@H](C(=O)NCCNC(=O)[C@@H]2N[C@@H]([C@H](NC(=O)/C=C\c3ccccc3)C(=O)NCC)SC2(C)C)C(C)(C)S1,-,>100 µM
O=c1[nH]c(=O)n([C@H]2C=C[C@@H](CO)O2)cc1C#CCO,MTT,64 µM
CN(C)C(=O)[C@@H](NC(=O)Cc1ccccc1)[C@@H]1N[C@@H](C(=O)NCCNC(=O)[C@@H]2N[C@@H]([C@H](NC(=O)Cc3ccccc3)C(=O)N(C)C)SC2(C)C)C(C)(C)S1,-,>100 µM
Cc1nc(CCCCCCC(=O)c2ccccc2)n2ncccc12,-,280 µM
Nc1nc2c(ncn2CCOCP(=O)(O)O)c(=O)[nH]1,-,2.4 µM
Cc1cc(C)c(Nc2nc(NC3CCN(Cc4ccc(Br)cc4)CC3)nc3nc[nH]c23)c(C)c1,MTT,11.45 µM
O=c1[nH]c(=O)n([C@H]2C=C[C@@H](CO)O2)cc1C#CCCOC1CCCCO1,MTT,71 µM
CC(C)=CCN1Cc2cccc3[nH]c(=S)n(c23)C[C@@H]1C,-,550 µM
CC1(C)CCc2c(cc(O)c3c(=O)c4c(oc23)-c2ccc(O)cc2OC(C(C)(C)O)C4)O1,-,20 µg/mL
CC1(C)S[C@H]([C@H](NC(=O)Cc2ccccn2)C(=O)NCc2ccc(Cl)cc2)N[C@H]1C(=O)NCCNC(=O)[C@@H]1N[C@@H]([C@H](NC(=O)Cc2ccccn2)C(=O)NCc2ccc(Cl)cc2)SC1(C)C,-,>100 µM

For reference, 7 entries again:

structure,method,result
Cc1cc(C)c(Nc2ccc([N+](=O)[O-])c(NC3CCN(Cc4ccc(C(N)=O)cc4)CC3)n2)c(C)c1,MTT,25 µM
Cc1nc(CCCCCCCc2ccccc2)n2nc(Cl)ccc12,-,250 µM
COc1ccc(CN2CCC(Nc3nc(Nc4c(C)cc(C)cc4C)c4[nH]cnc4n3)CC2)cc1,MTT,15.1 µM
CCC(C)Oc1cc(=O)[nH]c(Sc2ccc(Cl)cc2)n1,-,>300 µM
CCC(=CCN1Cc2cc(Cl)cc3[nH]c(=S)n(c23)C[C@@H]1C)CC,-,12 µM
CC(C)=CCN1Cc2cc(Cl)cc3[nH]c(=S)n(c23)C[C@@H]1C,-,34 µM
CCC(C)Oc1cc(N)nc(S(=O)(=O)c2cccc(Cl)c2)n1,-,80 µM

Rows are shuffled and stem from different studies. Blank or dashed fields: not listed here.